In this data set the target is NF-kB p65 (RelA), endogenous in nuclear extract of TNF-alpha-stimulated RPTEC (UniProt Q04206). Put plainly: EMSA supershift. The following applies: TNF-alpha 1000 U/mL 30 min nuclear extract, p65 antibody; EMSA with 32P-labelled dsDNA and RPTEC nuclear extract (TNF-alpha 1000 U/mL, 30 min, 37 C stimulation); binding buffer; protein in an extract; label: 32P. Background: In EMSA bound probe runs differently from free probe, usually more slowly.

Chains of the proteins cited; added tags and fusions are not shown.
UniProt Q04206, whole entry: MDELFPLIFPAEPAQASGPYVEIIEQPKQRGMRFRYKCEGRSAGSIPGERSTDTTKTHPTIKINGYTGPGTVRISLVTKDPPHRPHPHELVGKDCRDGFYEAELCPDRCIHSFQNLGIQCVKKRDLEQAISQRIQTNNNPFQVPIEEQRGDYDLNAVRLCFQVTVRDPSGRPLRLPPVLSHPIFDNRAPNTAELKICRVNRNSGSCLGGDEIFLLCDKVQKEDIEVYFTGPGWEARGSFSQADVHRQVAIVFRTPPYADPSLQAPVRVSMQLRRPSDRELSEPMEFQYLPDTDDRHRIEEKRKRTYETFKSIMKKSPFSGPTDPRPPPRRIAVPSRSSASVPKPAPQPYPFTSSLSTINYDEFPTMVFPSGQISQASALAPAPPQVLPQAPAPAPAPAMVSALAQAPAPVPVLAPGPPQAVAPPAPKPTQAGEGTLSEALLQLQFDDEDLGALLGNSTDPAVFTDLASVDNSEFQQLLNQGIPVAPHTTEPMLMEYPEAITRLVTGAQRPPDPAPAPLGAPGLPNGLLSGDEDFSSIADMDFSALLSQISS

For at least one entry, the source does not settle the construct or the ends of the probe. At least one result comes from cells or an extract, where the contact may be indirect.

As to “AAGAATAGGGATTTCCCCAAATA (double strand) [BK1]”, the binding result is recorded as “binds”.

(Values after paper PMC11826303.)
